Measured values from several laboratories, pooled; numbers as filed in NIAID ChemDB.

All rows: enzyme or target tests; species: HIV-1; protein: Reverse transcriptase

ICn is the concentration giving n% inhibition.

structure,measure,changes,strain,method,result
CC(C)=CCN1Cc2cccc3[nH]c(=S)n(c23)C[C@@H]1C,IC50,,D34,radiometric,4.9 µM
Cc1[nH]c2ccccc2c1S(=O)(=O)c1ccccc1,IC50,WT,,RT activity,88 µM
CCN1C(=O)c2ccnnc2N(CC)c2ccc(C)cc21,IC50,,,,<330 µM
Cc1[nH]c2ccccc2c1S(=O)(=O)c1ccc(Cl)cc1,IC50,K103N,,RT activity,>100 µM
N#Cc1cc(Cl)cc(Oc2cc(OCc3nc4cccc(Cl)c4s3)ccc2Cl)c1,IC50,,,nucleotide incorporation / radiometric,<20 µM
Cc1cc(C)cc(S(=O)(=O)n2cc(-c3cccc([N+](=O)[O-])c3)c3ccccc32)c1,IC50,Y181C,,RT activity,10 µM
C#CCOc1ccc2c(c1OC(C)=O)C(=O)c1ccccc1C2=O,IC50,,,,>100 µM
CC(C)c1nnc2c3ccccc3c(N3CCc4ccccc4C3)nn12,IC50,,IIIB,RT activity / fluorescence,4.97 µM
Nc1ccn([C@H]2CC[C@@H](COP(=O)(O)OP(=O)(O)OP(=O)(O)O)O2)c(=O)n1,IC50,,,,~0.41 µM
CC(C)Nc1cccnc1N1CCN(C(=O)c2cc3cc(N=CN(C)C)ccc3[nH]2)CC1,IC50,,,nucleotide incorporation,<100 µM
CCN1c2ccc(C)cc2N(C)C(=O)c2ccnnc21,IC50,,,,<330 µM
CCN1c2ncc(CCOc3cccc4c3CNC(=O)N4)cc2C(=O)N(C)c2cccnc21,IC50,RT-K103N Y181C,IIIB,nucleotide incorporation / radiometric,>0.1 µM
O=c1oc(-c2cccc(O)c2)nc2sc3c(c12)CCCCC3,IC50,,,nucleotide incorporation / fluorescence,54.2 µM
Cc1ccc(S(=O)(=O)c2c(-c3ccc(Cl)cc3)[nH]c3ccccc23)cc1,IC50,K103N,,RT activity,36 µM
NC(=O)c1c(NC(=O)c2ccc(Cl)cc2)sc2c1CCCCC2,IC50,,,nucleotide incorporation / fluorescence,56 µM
CC(C)Nc1cccnc1N1CCN(C(=O)c2cc3ccc(N(C)C)cc3[nH]2)CC1,IC50,,,nucleotide incorporation,<100 µM
FC(F)(F)c1ccc2c(c1)CN(c1nn3c(C4CC4)nnc3c3ccccc13)CC2,IC90,,KER2008,RT activity / fluorescence,6.62 µM
N#Cc1cc(Cl)cc(Oc2cc(OCc3cn(-c4ccccc4)nn3)ccc2Cl)c1,IC50,,,nucleotide incorporation / radiometric,<20 µM
O=C(c1cc2ccccc2[nH]1)N1CCN(c2ncccc2N2CCCC2)CC1,IC50,,,nucleotide incorporation,<100 µM
Cc1cc(=O)c2c(O)c3c(O)cc(O)c4c5c(O)cc(O)c6c(O)c7c(=O)cc(CO)c8c1c2c(c34)c(c65)c78,IC50,,,RT activity,<20 µg/mL
CS(=O)(=O)O.N[C@H]1CCN(c2nc3c(cc2F)c(=O)c(C(=O)O)cn3-c2ccc3ccccc3c2)C1,IC50,,,ELISA,<1 µg/mL
O=c1oc(-c2ccccc2)nc2sc3c(c12)CCCCC3,IC50,,,nucleotide incorporation / fluorescence,37.1 µM
CC(C)Nc1nccnc1N1CCN(C(=O)c2cc3cc(F)ccc3[nH]2)CC1,IC50,,,nucleotide incorporation,<100 µM
Cc1ccc(S(=O)(=O)n2cc(-c3cccc([N+](=O)[O-])c3)c3ccccc32)cc1,IC50,Y181C,,RT activity,27 µM
COc1cccc2[nH]c(C(=O)N3CCN(c4ncccc4NC(C)C)CC3)cc12,IC50,,,nucleotide incorporation,<100 µM
CCN1c2ncc(CCOc3cccc4c3CNC(=O)N4C)cc2C(=O)Nc2c(C)ccnc21,IC50,RT-K103N Y181C,IIIB,nucleotide incorporation / radiometric,>0.1 µM
CS(=O)(=O)O.N[C@H]1CCN(c2cc3c(cc2F)c(=O)c(C(=O)O)cn3-c2cccc3ccccc23)C1,IC50,,,ELISA,>1 µg/mL
CC(=O)Oc1c(OC(C)C(C)=O)ccc2c1C(=O)c1ccccc1C2=O,IC50,K103N,,,100 µM
CCN1c2ncc(CCOc3cccc4c3CN(O)C4=O)cc2C(=O)N(C)c2cccnc21,IC50,RT-K103N Y181C,IIIB,nucleotide incorporation / radiometric,>0.1 µM
O=C(Nc1sc2c(c1C(=O)Nc1ccccn1)CCCCC2)c1ccc(O)c(O)c1,IC50,,,nucleotide incorporation / fluorescence,20.9 µM
CCN1c2ncc(CCOc3cccc4c3CNC(=O)N4CC(=O)O)cc2C(=O)N(C)c2cccnc21,IC50,RT-K103N Y181C,IIIB,nucleotide incorporation / radiometric,>0.1 µM
C=CS(=O)(=O)N1CCC(NS(=O)(=O)c2c(C(N)=O)[nH]c3ccc(Br)cc23)C1,IC50,Y181C,BH10,RT activity / radiometric,18.2 µM
CN1CCN(c2nc3c(cc2F)c(=O)c(C(=O)O)cn3-c2cccc3ccccc23)CC1,IC50,,,ELISA,>1 µg/mL
Cc1cn([C@H]2C[C@H](N=[N+]=[N-])[C@@H](COP(=O)(O)OP(=O)(O)C(F)(F)P(=O)(O)N=[N+]=[N-])O2)c(=O)[nH]c1=O,IC50,,,fluorescence,>0.5 µM
Cc1cc(C)cc(S(=O)(=O)c2[nH]c3ccccc3c2-c2cccc([N+](=O)[O-])c2)c1,IC50,K103N,,RT activity,17 µM
C=CCN1C(=O)c2cc(Cl)nnc2N(C2CC2)c2ccccc21,IC50,,,,<330 µM
N#Cc1cc(Cl)cc(Oc2cc(OCc3[nH]nc4ncccc34)cc(F)c2Cl)c1,IC50,,,nucleotide incorporation / radiometric,<20 µM
CC(C)(C)Nc1ccnnc1N1CCN(C(=O)c2cc3cc(O)ccc3[nH]2)CC1,IC50,,,nucleotide incorporation,<100 µM
Cc1ccc(S(=O)(=O)c2c(C)[nH]c3ccccc23)cc1,IC50,K103N,,RT activity,>100 µM
CCN1c2ncc(CCOc3ccc4c(c3)CNC(=O)N4C)cc2C(=O)N(C)c2cccnc21,IC50,RT-K103N Y181C,IIIB,nucleotide incorporation / radiometric,>0.1 µM
Nc1nc2c(ncn2[C@H]2CC[C@@H](COP(=O)(O)OP(=O)(O)OP(=O)(O)O)O2)c(=O)[nH]1,IC50,RT-Y188L,,nucleotide incorporation,0.03 µM
O=C(Oc1ccc2c(c1OC(=O)c1ccccc1)C(=O)c1ccccc1C2=O)c1ccccc1,IC50,Y181C,,,>100 µM
Cc1nc2ccccc2c(=O)[nH]1,IC50,,,nucleotide incorporation / fluorescence,>100 µM
CCCN1C(=O)c2ccnnc2N(CCC)c2ccc(C)cc21,IC50,,,,>330 µM
N#Cc1cc(Cl)cc(Oc2cc(Cl)cc(OCc3[nH]nc4ccccc34)c2)c1,IC50,,,nucleotide incorporation / radiometric,<20 µM
Cc1cccc2[nH]c(C(=O)N3CCN(c4ncccc4NC(C)C)CC3)cc12,IC50,,,nucleotide incorporation,<100 µM
C=Cc1cc(N(CC)CC)nc(S(C)(=O)=O)n1,Ki,,,nucleotide incorporation / radiometric,3.5 µM
N#Cc1cc(Cl)cc(Oc2cc(F)cc(OCc3[nH]nc4ncccc34)c2)c1,IC50,,,nucleotide incorporation / radiometric,<20 µM
C[C@@H]1Cc2c(-c3cc(-c4cc(-c5c(O)cc(O)c6c5C[C@@H](C)N[C@@H]6C)c5ccccc5c4O)c(O)c4ccccc34)c(O)cc(O)c2[C@@H](C)N1,IC50,,,nucleotide incorporation,62 µM
C=CCOc1ccc2c(c1OC(C)=O)C(=O)c1ccccc1C2=O,IC50,K103N,,,100 µM
Cc1nc2c(c(=O)o1)CCCCC2,IC50,,,nucleotide incorporation / fluorescence,>100 µM
CCN1c2ncc(CCOc3cccc4c3CCNC4=O)cc2C(=O)N(C)c2cccnc21,IC50,,IIIB,nucleotide incorporation / radiometric,<0.05 µM
O=c1c(C2CCCC2)c(O)c2cccnc2n1O,IC50,,,luminescence,0.12 µM
Nc1nc(=O)n([C@@H]2CC[C@H](COP(=O)(O)OP(=O)(O)OP(=O)(O)O)O2)cc1F,IC50,,,,~1.4 µM
CC1CN(c2cc3c(cc2F)c(=O)c(C(=O)O)cn3-c2cccc3ccccc23)CCN1.CS(=O)(=O)O,IC50,,,ELISA,>1 µg/mL
C=Cc1nc(SC)nc(N(C)C)c1Cl,Ki,,,nucleotide incorporation / radiometric,90 µM
N#Cc1cc(Cl)cc(Oc2cc(Cl)ccc2OCC(=O)c2ccc(OCC(=O)O)cc2)c1,IC50,,,RT activity / ELISA / absorbance,3.4 µM
c1coc(-c2nnc3c4ccccc4c(N4CCc5ccccc5C4)nn23)c1,IC90,,KER2008,RT activity / fluorescence,0.92 µM
Cc1cc(S(N)(=O)=O)ccc1NC(=O)COc1ccccc1C(=O)c1cc(Cl)cc(C#N)c1,IC50,RT-K103N,NNRTI-resistant,nucleotide incorporation / radiometric,0.0046 µM
Cc1nnc2c3ccccc3c(N3CCc4c(F)cccc4C3)nn12,IC90,,IIIB,RT activity / fluorescence,12 µM
CCOc1ccccc1N1CCN(C(=O)c2cc3cc(OC)ccc3[nH]2)CC1,IC50,,,nucleotide incorporation,<100 µM
N#Cc1cc(Cl)cc(Oc2cc(OCc3[nH]nc4ncccc34)ccc2Cl)c1,IC50,,,nucleotide incorporation / radiometric,<20 µM

9 of the rows above, restated:

structure	measure	changes	strain	method	result
CCN1c2ncc(CCOc3cccc4c3CCNC4=O)cc2C(=O)N(C)c2cccnc21	IC50		IIIB	nucleotide incorporation / radiometric	<0.05 µM
CCN1C(=O)c2ccnnc2N(CC)c2ccc(C)cc21	IC50				<330 µM
CS(=O)(=O)O.N[C@H]1CCN(c2cc3c(cc2F)c(=O)c(C(=O)O)cn3-c2cccc3ccccc23)C1	IC50			ELISA	>1 µg/mL
N#Cc1cc(Cl)cc(Oc2cc(OCc3[nH]nc4ncccc34)ccc2Cl)c1	IC50			nucleotide incorporation / radiometric	<20 µM
CCN1c2ncc(CCOc3cccc4c3CNC(=O)N4C)cc2C(=O)Nc2c(C)ccnc21	IC50	RT-K103N Y181C	IIIB	nucleotide incorporation / radiometric	>0.1 µM
N#Cc1cc(Cl)cc(Oc2cc(F)cc(OCc3[nH]nc4ncccc34)c2)c1	IC50			nucleotide incorporation / radiometric	<20 µM
CC(C)=CCN1Cc2cccc3[nH]c(=S)n(c23)C[C@@H]1C	IC50		D34	radiometric	4.9 µM
N#Cc1cc(Cl)cc(Oc2cc(Cl)ccc2OCC(=O)c2ccc(OCC(=O)O)cc2)c1	IC50			RT activity / ELISA / absorbance	3.4 µM
C=Cc1nc(SC)nc(N(C)C)c1Cl	Ki			nucleotide incorporation / radiometric	90 µM

Lines come from different laboratories, so protocols vary. Blank or dashed fields: not listed here.